Results of unrelated studies side by side (data: NIAID ChemDB).

All rows: growth or infection tests; organism: Herpes simplex virus 2; measure: EC50

An empty or dashed field is not shown.

compound | strain or isolate | cell line | read by | result
Oc1cccc(O)c1O | G | E6SM | cytopathic effect | 15 µg/mL
NC(=O)c1csc2cc(-c3ccncc3)ccc2c1=O |  | VERO | plaque count | >100 µg/mL
O=C(O)c1cc(O)c(O)c(O)c1 | G | E6SM | cytopathic effect | 20 µg/mL
CCn1cc(C(=O)NNC)c(=O)c2ccc(-c3ccncc3)cc21 |  | VERO | plaque count | >25 µg/mL
NC(CS)C(=O)O.O=c1[nH]c(=O)n([C@H]2C[C@H](O)[C@@H](CO)O2)c[c]1[Hg+] | HG-25 | KB | virus yield | 0.176 µg/mL
Nc1ncnc2c1ncn2C[C@@H](CO)OCP(=O)(O)O | ACV-resistant | HEL | cytopathic effect | 0.011 µg/mL
O=c1[nH]c(=O)n([C@@H]2O[C@@H](CO)C[C@H]2F)cc1Cl |  | VERO |  | >40 µM
Nc1ncnc2c1ncn2CCOCP(=O)(O)O |  | Primary rabbit kidney cells |  | 7 µg/mL
CNc1ncnc2c1ncn2[C@@H]1O[C@@H](CO)C[C@H]1F |  | VERO |  | >100 µM
Nc1nccc2c1ncn2[C@@H]1C[C@H](CO)[C@@H](O)[C@H]1O | G | PRK | cytopathic effect | 200 µg/mL
O=C(CP(=O)(O)O)OC[C@H]1O[C@@H](n2cc(CCCl)c(=O)[nH]c2=O)C[C@@H]1O | TK- | VERO | cytopathic effect | >72.7 µM
CNc1ncnc2c1ncn2[C@H]1O[C@@H](CO)C[C@H]1F |  | VERO |  | >100 µM
O=c1[nH]c(=O)n([C@@H]2O[C@H](CO)[C@@H](O)[C@@H]2O)cc1/C=C/Br |  | HEL | plaque count | 138 µM
OC[C@H]1O[C@@H](n2cnc3cc(Cl)c(Cl)cc32)[C@H](O)[C@@H]1O | G | E6SM | cytopathic effect | 10 µg/mL
C[C@H](N)C(=O)OCP(=O)(OC[C@H]1O[C@@H](n2cnc3c(Cl)nccc32)C[C@@H]1O)Oc1ccccc1 | G | HEL |  | >100 µM
O=c1[nH]c(=O)n([C@@H]2O[C@H](CO)[C@@H](O)[C@@H]2O)cc1I |  | HEL | plaque count | 31 µM
Nc1nc(=O)n([C@H]2O[C@@H](CO)C[C@H]2F)cc1Br |  | VERO |  | >100 µM
CCn1cc(C(=O)N(C)C)c(=O)c2ccc(-c3ccncc3)cc21 |  | VERO | plaque count | >100 µg/mL
O=c1[nH]cnc2c1ncn2[C@H]1O[C@@H](CO)C[C@H]1F |  | VERO |  | >100 µM
O=C(O)CP(=O)(O)O | G | HEL | cytopathic effect | 7.4 µg/mL
Nc1ncnc2c1ncn2C[C@H]1COP(=O)(O)CO1 |  | Primary rabbit kidney cells |  | 4 µg/mL
Nc1ncnc2c1ccn2[C@H]1C[C@H](O)[C@@H](COP(=O)(O)COC(=O)[C@@H](N)CC(=O)O)O1 | G | HEL |  | >100 µM
C=Cc1cn([C@@H]2O[C@H](CO)[C@@H](O)[C@@H]2F)c(=O)[nH]c1=O |  | HEL | plaque count | 1.1 µM
OC[C@H]1O[C@@H](n2cnc3cc(Cl)c(Cl)cc32)[C@@H](O)[C@H]1O | G | E6SM | cytopathic effect | >40 µg/mL
COC(=O)CN(CC(=O)OC)P(=O)(OC[C@H]1O[C@@H](n2cc(/C=C/Br)c(=O)[nH]c2=O)C[C@@H]1O)Oc1ccccc1 | G | HEL |  | >100 µM
NC(=O)c1cn(CCO)c2cc(-c3ccncc3)ccc2c1=O |  | VERO | plaque count | >50 µg/mL
O=c1[nH]c(=O)n([C@@H]2O[C@H](CO)[C@@H](O)[C@@H]2O)cc1C=C(Br)Br |  | HEL | plaque count | >751 µM
O=C(O)CP(=O)(O)O | 91075 | SIRC | plaque count | <100 µM
OC[C@H]1O[C@H](n2cnc3cc(Cl)c(Cl)cc32)[C@@H](O)[C@H]1O | G | E6SM | cytopathic effect | 200 µg/mL
NC(=O)c1cn(-c2ccc(F)cc2)c2cc(Cl)ccc2c1=O |  | VERO | plaque count | >12.5 µg/mL
O=C(O)CP(=O)(O)OC[C@H]1O[C@@H](n2cc(CCCl)c(=O)[nH]c2=O)C[C@@H]1O | TK- | VERO | cytopathic effect | >232 µM
Nc1nc(=O)n([C@H]2O[C@@H](CO)C[C@H]2F)cc1I |  | VERO |  | >100 µM
OCCOC([C@H](O)CO)n1cnc2cc(Cl)c(Cl)cc21 | G | E6SM | cytopathic effect | >400 µg/mL
O=c1[nH]c(=O)n([C@H]2C[C@H](O)[C@@H](CO)O2)cc1I |  | HEL | plaque count | 4.12 µM
CCn1cc(C#N)c(=O)c2ccc(-c3ccncc3)cc21 |  | VERO | plaque count | >100 µg/mL
OCCOC(CCO)n1cnc2cc(Cl)c(Cl)cc21 | G | E6SM | cytopathic effect | >100 µg/mL
CCCn1cc(C(N)=O)c(=O)c2ccc(-c3ccncc3)cc21 |  | VERO | plaque count | >6.25 µg/mL
O=c1[nH]c(=O)n(C2CC(O)C(CO)O2)cc1/C=C/Br | G | HEL |  | 250 µM
O=C(O)CP(=O)(O)O | TK- | VERO | cytopathic effect | >71.4 µM
Nc1nc2c(ncn2COC(CO)CO)c(=O)[nH]1 | PCV-resistant/A | HEL | cytopathic effect | 0.32 µg/mL
O=c1[nH]c(=O)n([C@H]2C[C@H](O)[C@@H](CO)O2)c[c]1[Hg+].O[C@H](C[S-])[C@H](O)CS | HG-25 | KB | virus yield | 0.144 µg/mL
Nc1nc(N)c2ncn(CCOCP(=O)(O)O)c2n1 | PCV-resistant/B | HEL | cytopathic effect | 2 µg/mL
CCOC(=O)P(=O)(OC)OC[C@H]1O[C@@H](n2cc(I)c(=O)[nH]c2=O)C[C@@H]1O | K979 | VERO | cytopathic effect | >5.9 µM
O=C(O)P(=O)(O)O | B4327UR | SIRC | plaque count | <100 µM
O=C(O)Cc1ccc(O)c(O)c1 | G | E6SM | cytopathic effect | 9 µg/mL
Nc1ncnc2c1ncn2C[C@@H](CO)OCP(=O)(O)O |  | Primary rabbit kidney cells |  | 4 µg/mL
O=c1[nH]c(=O)n([C@H]2C[C@H](O)[C@@H](CO)O2)c[c]1[Hg+].OCC[S-] | HG-25 | KB | virus yield | 0.394 µg/mL
O=c1[nH]cnc2c1ncn2CCOCP(=O)(O)O |  | Primary rabbit kidney cells |  | >400 µg/mL
CC(C)(C)C(=O)OCOC(=O)CN(CC(=O)OCOC(=O)C(C)(C)C)P(=O)(OC[C@H]1O[C@@H](n2cnc3c(N)ccnc32)C[C@@H]1O)Oc1ccccc1 | G | HEL |  | >20 µM
Cc1cc(O)ccc1O | G | E6SM | cytopathic effect | 120 µg/mL
Nc1nc2c(ncn2COC(CO)CO)c(=O)[nH]1 | G | HEL |  | 0.02 µM
CCO/N=C/c1ccc(OCCC2CCN(c3ccc(C)nn3)CC2)cc1 | HGP | KB | neutral red | 0.0008 µM
OC[C@H]1O[C@@H](n2cnc3c(Cl)nccc32)C[C@@H]1O | G | HEL |  | >100 µM
O=c1[nH]c(=O)n([C@@H]2O[C@H](CO)[C@@H](O)[C@@H]2F)cc1I |  | HEL | plaque count | 0.161 µM

For reference, 7 entries again:

compound,strain or isolate,cell line,read by,result
CCn1cc(C#N)c(=O)c2ccc(-c3ccncc3)cc21,,VERO,plaque count,>100 µg/mL
O=c1[nH]c(=O)n([C@@H]2O[C@H](CO)[C@@H](O)[C@@H]2F)cc1I,,HEL,plaque count,0.161 µM
O=C(CP(=O)(O)O)OC[C@H]1O[C@@H](n2cc(CCCl)c(=O)[nH]c2=O)C[C@@H]1O,TK-,VERO,cytopathic effect,>72.7 µM
CCO/N=C/c1ccc(OCCC2CCN(c3ccc(C)nn3)CC2)cc1,HGP,KB,neutral red,0.0008 µM
NC(=O)c1cn(-c2ccc(F)cc2)c2cc(Cl)ccc2c1=O,,VERO,plaque count,>12.5 µg/mL
O=c1[nH]c(=O)n([C@@H]2O[C@@H](CO)C[C@H]2F)cc1Cl,,VERO,,>40 µM
Nc1nc2c(ncn2COC(CO)CO)c(=O)[nH]1,PCV-resistant/A,HEL,cytopathic effect,0.32 µg/mL

Lines come from different laboratories, so protocols vary. ECn is the concentration giving n% inhibition of infection, replication or growth.